# System: HCV genotype 1b luciferase reporter replicon
# Assay type: cell-based
# Conditions: TC50 over EC50
# Description: The plates were cultured for 24 hours prior to the addition of compounds. Six serial one half log dilutions of the test articles (high test concentration of 100.0 μM or high test concentration of 1.0 μM) and human interferon-alpha2b (high test 10.0 U/ml) were prepared in cell culture medium and added to the cultured cells in triplicate wells for each dilution. Six wells in the test plates received medium alone as an untreated control. Following 72 hours of culture in the presence of compound, one of the plates was used for the determination of cytotoxicity by staining with XTT and the other for antiviral efficacy by determination of luciferase reporter activity. Cytotoxicity and efficacy data were collected and imported into a customized Excel workbook for determination of the TC50 and EC50 values. […] The y-axis is the percent of virus control and the x-axis is the concentration of drug in μM. […] The y-axis is the percent of virus control and the x-axis is the concentration of drug in M.
row,Molecule,therapeutic index
1,sofosbuvir [reference compound],"greater than 1,920"
2,CNc1nc(N)nc2c1ncn2[C@@H]1OC(CO[P@@](=O)(N[C@@H](C)C(=O)OC(C)C)Oc2ccccc2)[C@@H](O)[C@@]1(C)F (stereo partly drawn) [Compound 5-2],"greater than 25,000"
3,"CC(C)OC(=O)[C@H](C)N[P@](=O)(OCC1O[C@@H](n2cnc3c(N(C)C)nc(N)nc32)[C@](C)(F)[C@@H]1O)Oc1ccccc1 (stereo partly drawn) [Compound 25, isopropyl ((((S)-(2R,3R,4R,5R)-5-(2-amino-6-(dimethylamino)-9H-purin-9-yl)-4-fluoro-3-hydroxy-4-methyltetrahydrofuran-2-yl)methoxy)-phenoxy-phosphoryl)-L-alaninate]","greater than 25,000"

# From patent US12084473B2, “β-D-2′-deoxy-2′-α-fluoro-2′-β-C-substituted-2-modified-N6-substituted purine nucleotides for HCV treatment” (Atea Pharmaceuticals, Inc., priority 2015, dated 2024)
